Data reported in patent US20230357367A1 (GENERATE BIOMEDICINES, published 2023).

B1: Reference Antibody (antibody, V domains shown)
VH: EVQLVESGAEVKKPGESLKISCKGSGYTFTRYWIGWVRQMPGKGLEWMGIIYPGDSDTRYSPSFQGHVTISADKSISTAYLQWNSLKASDTAMYYCARLPQYCSNGVCQRWFDPWGQGTLVTVSS
VL: EIVLTQSPSSVSASVGDRVTITCRASQGISSWLAWYQQKPGKAPKLLIYAASSLQSGVPSRFSGSGSGTDFTLTISSLQPEDFATYYCQQGNSFPYTFGQGTNLEIK
B2: Reference Antibody Fab (Fab, V domains shown)
VH: EVQLVESGAEVKKPGESLKISCKGSGYTFTRYWIGWVRQMPGKGLEWMGIIYPGDSDTRYSPSFQGHVTISADKSISTAYLQWNSLKASDTAMYYCARLPQYCSNGVCQRWFDPWGQGTLVTVSS
VL: EIVLTQSPSSVSASVGDRVTITCRASQGISSWLAWYQQKPGKAPKLLIYAASSLQSGVPSRFSGSGSGTDFTLTISSLQPEDFATYYCQQGNSFPYTFGQGTNLEIK

Legend:
[1] = target: WIV1 spike trimer (recombinant, in-house production) (WIV1 (bat SARS-like coronavirus)); assay: DELFIA, IgG titrated on coated spike trimer
[2] = target: T1, SARS-CoV-2 BA.4 spike trimer (recombinant) (SARS-CoV-2); assay: SPR, Fab over anti-His-captured trimer, 25 C
[3] = target: T2, SARS-CoV-2 BQ.1.1 spike trimer (recombinant) (SARS-CoV-2); assay: SPR, Fab over anti-His-captured trimer, 25 C
[4] = target: T3, SARS-CoV-2 XBB.1.5 spike trimer (recombinant) (SARS-CoV-2); assay: SPR, Fab over anti-His-captured trimer, 25 C
[5] = target: T4, SARS-CoV-2 BA.2 (parent) spike trimer (recombinant, in-house production) (SARS-CoV-2); assay: SPR, Fab over anti-His-captured trimer, 25 C
[6] = target: T5, SARS-CoV-2 BA.2+P1162L spike trimer (recombinant, in-house production) (SARS-CoV-2); assay: SPR, Fab over anti-His-captured trimer, 25 C
[7] = target: T6, SARS-CoV-2 BA.2+P1162S spike trimer (recombinant, in-house production) (SARS-CoV-2); assay: SPR, Fab over anti-His-captured trimer, 25 C
[8] = target: T7, SARS-CoV-2 BA.5 spike trimer (recombinant) (SARS-CoV-2); assay: SPR, Fab over anti-His-captured trimer, 25 C
[9] = target: T1, SARS-CoV-2 BA.4 spike trimer …; assay: SPR, Fab over anti-His-captured trimer, 37 C
[10] = target: T2, SARS-CoV-2 BQ.1.1 spike trimer …; assay: SPR, Fab over anti-His-captured trimer, 37 C
[11] = target: T3, SARS-CoV-2 XBB.1.5 spike trimer …; assay: SPR, Fab over anti-His-captured trimer, 37 C
[12] = target: T4, SARS-CoV-2 BA.2 (parent) spike trimer …; assay: SPR, Fab over anti-His-captured trimer, 37 C
[13] = target: T5, SARS-CoV-2 BA.2+P1162L spike trimer …; assay: SPR, Fab over anti-His-captured trimer, 37 C
[14] = target: T6, SARS-CoV-2 BA.2+P1162S spike trimer …; assay: SPR, Fab over anti-His-captured trimer, 37 C
[15] = target: T7, SARS-CoV-2 BA.5 spike trimer …; assay: SPR, Fab over anti-His-captured trimer, 37 C

| Binder | EC50 [1] | Kd [2] | Kd [3] | Kd [4] | Kd [5] | Kd [6] | Kd [7] | Kd [8] | Kd [9] | Kd [10] | Kd [11] | Kd [12] | Kd [13] | Kd [14] | Kd [15] |
| --- | --- | --- | --- | --- | --- | --- | --- | --- | --- | --- | --- | --- | --- | --- | --- |
| B1 | 0.076 µg/mL | – | – | – | – | – | – | – | – | – | – | – | – | – | – |
| B2 | – | 19 nM | 22 nM | 18.8 nM | 85.8 nM | 113 nM | 78 nM | 15.6 nM | 37.4 nM | 43.7 nM | 39.8 nM | 146 nM | 201 nM | 150 nM | 45.9 nM |
